Pooled drug test results. Numbers come from NIAID ChemDB, via PubChem.

Shared fields: growth or infection tests; organism: Mycobacterium avium complex; read-out: MIC

Conditions beyond the fields shown may differ between rows.

{"SMILES": "CC[C@H]1OC(=O)[C@H](C)[C@@H](OC2C[C@@](C)(OC)[C@@H](O)[C@H](C)O2)[C@H](C)[C@@H](O[C@@H]2O[C@H](C)C[C@H](N(C)C)[C@H]2O)C(C)(O)C[C@@H](C)/C(=N\\OCCCc2ccccc2)[C@H](C)[C@@H](O)[C@]1(C)O", "strain": "20096 (clarithromycin-resistant)", "result": "12.5 µg/mL"}
{"SMILES": "CCCCCCCCOC1OC([C@H](CO)OC2O[C@@H](C(O)CO)[C@H](O)[C@H]2O)[C@H](O)[C@H]1O", "strain": "NJ168", "result": ">128 µg/mL"}
{"SMILES": "CC[C@H]1OC(=O)[C@H](C)[C@@H](O[C@H]2C[C@@](C)(OC)[C@@H](OC(C)=O)[C@H](C)O2)[C@H](C)[C@@H](O[C@@H]2O[C@H](C)C[C@H](N(C)C)[C@H]2OC(=O)NNC)C(C)(O)C[C@@H](C)/C(=N\\OCCCC2CCCCC2)[C@H](C)[C@@H](O)[C@]1(C)O", "strain": "20092 (clarithromycin-resistant)", "result": "3.13 µg/mL"}
{"SMILES": "CCCCCCCCO[C@H]1OC([C@@H](COCc2ccccc2)O[C@H]2O[C@H]([C@@H](O)CO)[C@@H](O)[C@@H]2O)[C@@H](OCc2ccccc2)[C@@H]1OCc1ccccc1", "strain": "NJ304", "result": ">128 µg/mL"}
{"SMILES": "CCC(=O)O[C@H]1[C@H](C)[C@@H](O[C@@H]2O[C@H](C)C[C@H](N(C)C)[C@H]2O)C(C)(O)C[C@@H](C)/C(=N\\OCCCOc2ccccc2)[C@H](C)[C@@H](O)[C@](C)(O)[C@@H](CC)OC(=O)[C@@H]1C", "strain": "20096 (clarithromycin-resistant)", "result": "25 µg/mL"}
{"SMILES": "CC1(C)N=C(N)N=C(N)N1OCCCOc1cc(Cl)c(Cl)cc1Cl", "strain": "W7547", "result": "2 µg/mL"}
{"SMILES": "CC1(C)N=C(N)N=C(N)N1OCCCOc1cc(Cl)c(Cl)cc1Cl", "strain": "DW16", "result": "2 µg/mL"}
{"SMILES": "CC(=O)Nc1ccc(/C(C)=N\\NC(N)=S)cc1", "strain": "109", "result": "0.25 µg/mL"}
{"SMILES": "CCCCCCCCO[C@@H]1O[C@@H]([C@H](COC)O[C@H]2O[C@H](COCc3ccccc3)[C@@H](OCc3ccccc3)[C@@H]2OCc2ccccc2)[C@H](OC)[C@H]1OC", "strain": "NJ168", "result": ">128 µg/mL"}
{"SMILES": "CC[C@H]1OC(=O)[C@H](C)[C@@H](O[C@H]2C[C@@](C)(OC)[C@@H](OC(C)=O)[C@H](C)O2)[C@H](C)[C@@H](O[C@@H]2O[C@H](C)C[C@H](N(C)C)[C@H]2OC(=O)NN2CCCCC2)C(C)(O)C[C@@H](C)/C(=N\\OCCCC2CCCCC2)[C@H](C)[C@@H](O)[C@]1(C)O", "strain": "20096 (clarithromycin-resistant)", "result": "3.13 µg/mL"}
{"SMILES": "CC[C@H]1OC(=O)[C@H](C)[C@@H](O[C@H]2C[C@@](C)(OC)[C@@H](O)[C@H](C)O2)[C@H](C)[C@@H](O[C@@H]2O[C@H](C)C[C@H](N(C)C)[C@H]2O)[C@](C)(OC)C[C@@H](C)C(=O)[C@H](C)[C@@H](O)[C@]1(C)O", "strain": "N-325 (HIV-)", "result": "2 µg/mL"}
{"SMILES": "CCCCCCCCO[C@@H]1O[C@H]([C@@H](COC)O[C@H]2O[C@H](CO)[C@@H](O)[C@@H]2O)[C@H](OC)[C@H]1OC", "strain": "NJ168", "result": ">128 µg/mL"}
{"SMILES": "CO[C@H]1/C=C/O[C@@]2(C)Oc3c(C)c(O)c4c(=O)c(c5oc6cc(N7CCN(CC(C)C)CC7)cc(=O)c6nc5c4c3=C2O)NC(=O)/C(C)=C\\C=C\\[C@H](C)[C@H](O)[C@@H](C)[C@@H](O)[C@@H](C)[C@H](OC(C)=O)[C@@H]1C", "strain": "N-980 (HIV+)", "result": "0.05 µg/mL"}
{"SMILES": "CCCCCCCCO[C@@H]1O[C@H]([C@@H](CO)O[C@H]2O[C@H](CO)[C@@H](O)[C@@H]2O)[C@H](O)[C@H]1O", "strain": "NJ304", "result": ">128 µg/mL"}
{"SMILES": "CCO/N=C1\\[C@H](C)CC(C)(O)[C@H](O[C@@H]2O[C@H](C)C[C@H](N(C)C)[C@H]2O)[C@@H](C)[C@H](OC2C[C@@](C)(OC)[C@@H](O)[C@H](C)O2)[C@@H](C)C(=O)O[C@H](CC)[C@@](C)(O)[C@H](O)[C@H]1C", "strain": "20039 (clarithromycin-susceptible)", "result": "3.13 µg/mL"}
{"SMILES": "CO[C@H]1/C=C/O[C@@]2(C)Oc3c(C)c(O)c4c(O)c(c5c(c4c3C2=O)NC2(CCN(CC(C)C)CC2)N=5)=NC(=O)/C(C)=C\\C=C\\[C@H](C)[C@H](O)[C@@H](C)[C@@H](O)[C@@H](C)[C@H](OC(C)=O)[C@@H]1C", "strain": "N-316 (HIV-)", "result": "0.0625 µg/mL"}
{"SMILES": "CCCCCCCCO[C@@H]1O[C@@H](C(CO[C@@H]2O[C@@H]([C@H](O)CO)[C@H](O)[C@H]2O)OCc2ccccc2)[C@H](OCc2ccccc2)[C@H]1OCc1ccccc1", "strain": "NJ304", "result": ">128 µg/mL"}
{"SMILES": "CC[C@H]1OC(=O)[C@H](C)[C@@H](OC(=O)Cc2ccncc2)[C@H](C)[C@@H](O[C@@H]2O[C@H](C)C[C@H](N(C)C)[C@H]2O)C(C)(O)C[C@@H](C)/C(=N\\OCCCOc2ccccc2)[C@H](C)[C@@H](O)[C@]1(C)O", "strain": "20092 (clarithromycin-resistant)", "result": "25 µg/mL"}

A second listing of 2 rows from above:

SMILES,strain,result
CCC(=O)O[C@H]1[C@H](C)[C@@H](O[C@@H]2O[C@H](C)C[C@H](N(C)C)[C@H]2O)C(C)(O)C[C@@H](C)/C(=N\OCCCOc2ccccc2)[C@H](C)[C@@H](O)[C@](C)(O)[C@@H](CC)OC(=O)[C@@H]1C,20096 (clarithromycin-resistant),25 µg/mL
CCCCCCCCO[C@@H]1O[C@@H](C(CO[C@@H]2O[C@@H]([C@H](O)CO)[C@H](O)[C@H]2O)OCc2ccccc2)[C@H](OCc2ccccc2)[C@H]1OCc1ccccc1,NJ304,>128 µg/mL